Pooled drug test results. Numbers come from NIAID ChemDB, via PubChem.

Common to all: tests in culture; organism: HIV-1; measure: EC50

Blank or dashed fields: not listed here. a–b is a range or a potency band. Neighbouring rows are from separate reports. ECn: concentration that inhibits the pathogen or its effect by n%.

| SMILES | cell line | setting | strain | mutations | result |
|---|---|---|---|---|---|
| Cc1nnc(SCC(=O)Nc2ccccc2Br)n1-c1ccc(Cl)c2ccccc12 | HeLa |  |  | Y188L | 0.2 µM |
| Cc1nnc(C(=O)NC(C)(C)c2nc(C(=O)NCc3ccc(F)cc3)c(O)c(=O)n2C)o1 | Jurkat cells |  | NL4-3 | +Vpx | 0.007 µM |
| Cc1ccnc2c1NC(=O)c1cccnc1N2C1CC1 | PBMC |  | BCF11 | RT-A98G K103R | 0.59 µM |
| Cc1cc2c(C)cccc2c(-n2c(C)nnc2SCC(=O)Nc2ccccc2Br)c1C | HeLa |  |  | Y188L | 0.158 µM |
| CC(C)(C)NC(=O)[C@@H]1C[C@@H]2CCCC[C@@H]2CN1C[C@@H](O)[C@H](Cc1ccccc1)NC(=O)[C@H](CC(N)=O)NC(=O)c1ccc2ccccc2n1 | PBMC |  | Clinical isolate | L10I L24I I33F E35D M36I N37S M46L I54V R57K I62V L63P A71V G73S V82A | 0.53 µM |
| Cc1ccc2c(C)ccnc2c1-n1c(C)nnc1SCC(=O)Nc1ccc(S(N)(=O)=O)cc1Cl | HeLa |  |  | Y188L | 0.015 µM |
| Cc1cn([C@H]2C[C@H](N=[N+]=[N-])[C@@H](CO)O2)c(=O)[nH]c1=O | PBMC |  | BCF02 | RT-A98G V106I Y181C | <0.01 µM |
| CC(C)CN(C[C@@H](O)[C@H](Cc1ccccc1)NC(=O)O[C@H]1CCOC1)S(=O)(=O)c1ccc(N)cc1 | MT-4 |  | NL4-3 | L10I G48V I54V A71V I84V L90M SQV resistant | 0.435 µM |
| CC(C)(C)OC(=O)N[C@@H](Cc1ccccc1)[C@H](O)CNC[C@@H](O)[C@H](Cc1ccc(OCC(=O)N2CCOCC2)cc1)NC(=O)OC(C)(C)C |  |  | BMS-186318-resistant (PR A71T V82A) | PR-A71T V82A | 3.11 µM |
| Cc1ccc(NC(=O)CSc2nnc(C)n2-c2c(C)cc(C)c3ccccc23)c(Cl)c1 | HeLa |  |  | Y188L | 0.089 µM |
| Nc1nc(N)c2ncn([C@H]3CO[C@@H](CO)O3)c2n1 | MT-2 |  | IIIB |  | 0.2 µM |
| Nc1ccn([C@H]2CC[C@@H](CO)O2)c(=O)n1 | MDM |  | NL4-3 |  | 0.113 µM |
| CO[P@](=O)(c1cc(C)cc(/C=C/C#N)c1)c1c(C(N)=O)[nH]c2ccc(Cl)c(F)c12 | MT-4 |  | BH10 |  | 0.00028 µM |
| Cc1ccnc2c1NC(=O)c1cccnc1N2C1CC1 | MDM |  | NL4-3 |  | 0.274 µM |
| CC(C)=CCN1c2cc(Cl)cc3[nH]c(=S)n(c23)C[C@@H]1C | MT-4 |  |  | RT-L74V Y181C | >3 µM |
| O=C(Nc1cc(S(=O)(=O)O)cc2cc(S(=O)(=O)O)c(N=Nc3ccc(N=Nc4c(S(=O)(=O)O)cc5cc(S(=O)(=O)O)cc(NC(=O)c6cccc(Cl)c6Cl)c5c4O)cc3)c(O)c12)c1ccc(Cl)cc1Cl | H9 |  | IIIB |  | 0.3–1.3 µg/mL |
| COC(=O)N[C@H](C(=O)N[C@@H](Cc1ccccc1)[C@@H](O)CN(Cc1ccc(-c2ccccn2)cc1)NC(=O)[C@@H](NC(=O)OC)C(C)(C)C)C(C)(C)C | PBMC | clinical isolate, multidrug-resistant | Clinical isolate | L10I K14R L33I M36I M46I F53I K55R I62V L63P A71V G73S V82A L90M I93L | 0.45 µM |
| CC(C)(C)NC(=O)[C@@H]1C[C@@H]2CCCC[C@@H]2CN1C[C@@H](O)[C@H](Cc1ccccc1)NC(=O)[C@H](CC(N)=O)NC(=O)c1ccc2ccccc2n1 | PBMC |  | BCF08 | PR-L10V K20C M36I L63T I64V A71V | 0.0164 µM |
| O=c1[nH]cnc2c1ncn2[C@H]1CC[C@@H](CO)O1 | MT-4 |  | NL4-3 |  | 1.47 µM |

The last 2 rows once more:

SMILES | cell line | setting | strain | mutations | result
CC(C)(C)NC(=O)[C@@H]1C[C@@H]2CCCC[C@@H]2CN1C[C@@H](O)[C@H](Cc1ccccc1)NC(=O)[C@H](CC(N)=O)NC(=O)c1ccc2ccccc2n1 | PBMC |  | BCF08 | PR-L10V K20C M36I L63T I64V A71V | 0.0164 µM
O=c1[nH]cnc2c1ncn2[C@H]1CC[C@@H](CO)O1 | MT-4 |  | NL4-3 |  | 1.47 µM